In US12440525B2 (priority 2017, dated 2025):
Counter-ions that a name gives are not always drawn.

Test system: antiviral and redox response genes
Test: Microarray gene expression analysis of VSVΔ51-infected 786-0 cells
Assay type: cell-based, human
Settings: DMF 200 μM, 24 h post infection, ifitim1, mx2, gbp4, ifi27, ifna, cxcl10, FIG. 5A, D

## COC(=O)/C=C/C(=O)OC [DMF, dimethyl fumarate]
  expression of antiviral genes up-regulated by VSVΔ51 infection: inhibition of many of these
